Anti-infective test results gathered from many reports (values: NIAID ChemDB through PubChem).

Shared fields: tests in culture; species: HIV-1; read by: cytopathic effect / XTT; read-out: EC50

Rows are shuffled and stem from different studies. An empty or dashed field is not shown. ECn: concentration that inhibits the pathogen or its effect by n%.

SMILES,strain or isolate,changes,cells,value
C1=Nc2ccccc2SN1,IIIB,RT-Y181C,CEM + CEM-SS,>73 µM
Cc1ccnc2c1NC(=O)c1cccnc1N2C1CC1,NL4-3,RT-K103N,CEM + CEM-SS,>2 µM
CCc1c(C(=O)c2cc(C)cc(C)c2)n(CC2CC=CC2)c(=O)[nH]c1=O,4XAZT/Y181C (RT D67N K70R Y181C T215Y K219Q),RT-D67N K70R Y181C T215Y K219Q,CEM + CEM-SS,0.0003 µM
Cc1ccnc2c1NC(=O)c1cccnc1N2C1CC1,NL4-3,-,CEM + CEM-SS,0.02 µM
C/C=C/CSc1cc(NC(=S)c2ccsc2C)ccc1Cl,3TC-RS (RT-M184I),RT-M184I,CEM + CEM-SS,0.1 µM
Cc1cn([C@H]2C[C@H](N=[N+]=[N-])[C@@H](CO)O2)c(=O)[nH]c1=O,PM16,-,CEM + CEM-SS,0.013 µM
Cc1cn([C@H]2C[C@H](N=[N+]=[N-])[C@@H](CO)O2)c(=O)[nH]c1=O,BaKi (syncytium-inducing),-,PBMC,0.001 µM
Fc1cccc(F)c1C1SCc2nc3ccccc3n21,UC10-resistant (RT Y181C K101E),RT-Y181C K101E,CEM + CEM-SS,>69 µM
Cc1cn([C@H]2C[C@H](N=[N+]=[N-])[C@@H](CO)O2)c(=O)[nH]c1=O,NL4-3,RT-V108I,CEM + CEM-SS,0.01 µM
Cc1cn([C@H]2C[C@H](N=[N+]=[N-])[C@@H](CO)O2)c(=O)[nH]c1=O,NL4-3,RT-K103N,CEM + CEM-SS,0.004 µM
Fc1cccc(F)c1C1SCc2nc3ccccc3n21,IIIB,-,CEM + CEM-SS,0.6 µM
Cc1cn([C@@H]2O[C@H](CO[Si](C)(C)C(C)(C)C)C3(OS(=O)(=O)C=C3N)[C@H]2O[Si](C)(C)C(C)(C)C)c(=O)n(C)c1=O,IIIB,RT-L100I,CEM,0.06 µM
Fc1cccc(F)c1C1SCc2nc3ccccc3n21,214,-,CEM + CEM-SS,1.11 µM
CC(C)=CCN1Cc2cc(Cl)cc3[nH]c(=S)n(c23)C[C@@H]1C,IIIB,RT-V106N,CEM,1.6 µM
Cc1occc1C(=S)Nc1ccc(Cl)c(/C=N/OC(C)(C)C)c1,3TC-RS (RT-M184I),RT-M184I,CEM + CEM-SS,0.2 µM
O=C1N(Cc2ccc(CO)cc2)[C@H](COc2ccccc2)[C@H](O)[C@@H](O)[C@@H](COc2ccccc2)N1Cc1ccc(CO)cc1,IIIB,PR-L90M,MT-4,0.12 µM
Cc1cn([C@H]2C[C@H](N=[N+]=[N-])[C@@H](CO)O2)c(=O)[nH]c1=O,LAV,-,CEM + CEM-SS,0.0005 µM
CCc1c(Sc2ccccn2)n(COCc2ccccc2)c(=O)[nH]c1=O,NL4-3,RT-V108I,CEM + CEM-SS,0.05 µM
O=S(=O)([O-])c1ccc([NH+]=C2C=CC(=C(c3ccc(Nc4ccc(S(=O)(=O)O)cc4)cc3)c3ccc(Nc4ccc(S(=O)(=O)O)cc4)cc3)C=C2)cc1,RF,-,CEM + CEM-SS,20 µM
Fc1cccc(F)c1C1SCc2nc3ccccc3n21,IIIB,RT-L100I,CEM,3.12 µM

The first 3 rows once more:

{"SMILES": "C1=Nc2ccccc2SN1", "strain or isolate": "IIIB", "changes": "RT-Y181C", "cells": "CEM + CEM-SS", "value": ">73 µM"}
{"SMILES": "Cc1ccnc2c1NC(=O)c1cccnc1N2C1CC1", "strain or isolate": "NL4-3", "changes": "RT-K103N", "cells": "CEM + CEM-SS", "value": ">2 µM"}
{"SMILES": "CCc1c(C(=O)c2cc(C)cc(C)c2)n(CC2CC=CC2)c(=O)[nH]c1=O", "strain or isolate": "4XAZT/Y181C (RT D67N K70R Y181C T215Y K219Q)", "changes": "RT-D67N K70R Y181C T215Y K219Q", "cells": "CEM + CEM-SS", "value": "0.0003 µM"}